## Primary screen of a compound library

Source: ChEMBL document CHEMBL3988442, “University of Dundee, Small-Polar-MMV Screening Library” (2021).

A: 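Phenotypic screen: M. tuberculosis growth, glucose 7H9 medium, 3 days; the read-out is not stated. Concentration: 500 µM. The record gives no direction; compounds that gave an IC50 in retests scored well above the rest, so higher reads as more growth inhibition. Size under these conditions: about 18,000 compounds, about 1,400 of them at 50% or above in at least one test.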
B: 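Whole-cell growth test on Mycobacterium tuberculosis, read after 4 days in a medium based on cholesterol and the lipid DPPC; the read-out is not stated. Tested at 500 µM. The record gives no direction; compounds that gave an IC50 in retests scored well above the rest, so higher reads as more growth inhibition. Size under these conditions: about 18,000 compounds, about 900 of them at 50% or above in at least one test.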

Each number is a percent effect as filed.
The controls that fix the scale are not given in the record; negative values are as filed.
Many other results are left out here, so strong results are more common than in the screen.
A dash means the value is not listed here; it may have been measured.

structure	A	B
CN(Cc1ccco1)C(=O)c1cc(C2CC2)[nH]n1	75.42	69.93
N#CCOc1ccc(CN)cc1	9.523	15.79
Cc1nc(CN2CCCC(N)C2)cs1 (configuration not stated)	-	10.75
COCC(=O)NC(Cc1ccccc1)[C@H]1C[C@H](O)C1 (some centres not stated)	18.11	-
COCCOC1CCN(S(=O)(=O)c2cn(C)cn2)CC1	-0.5821	-
CS(=O)(=O)N1CCC(N)C1 (configuration not stated)	-14.21	-
CN(C)[C@@H]1CN(C(=O)c2ccccc2Cl)C[C@H]1CO	-	-14.22
CC(CC(=O)N1CCOCC1)c1ccccc1 (configuration not stated)	-	39.43
O=C(c1ccncc1F)N1CCOc2ncccc21	-12.67	-
NS(=O)(=O)c1ccc(NC(=O)Oc2ccccc2)cc1	11.32	-
NC(=O)COc1ccccc1CNC1CCCC1	-	4.947
O=C1OC2(CCNCC2)CN1Cc1ccc(Cl)s1	34.53	-
NC(=O)CCN1CCN(c2ncc(Br)cn2)CC1	-	17.73
O=C(CCNc1nc2ccccc2o1)N1CCCC1	-13.94	-
CCC(N)(CC)CNS(=O)(=O)c1cccc(F)c1	-4.013	-
CC(O)CNCCNCc1ccc(-c2ccccc2)o1 (configuration not stated)	60.04	48.27
COCCNC(=O)C(C)Cn1cc(Br)cn1 (configuration not stated)	49.14	-
COC(=O)CCCC(=O)N1CCCc2ccccc2C1	54.97	-
CCNS(=O)(=O)c1ccc(CC(N)=O)cc1	7.007	-
Cc1nc(-c2ccc(CN)o2)cs1	-	3.338
COCCN(Cc1cccs1)C(=O)C1CCNC1 (configuration not stated)	3.643	-
NCc1cc(Cl)ccn1	76.78	54.01
Cc1cc(C)c(CNC(=O)C2CCCO2)c(=O)[nH]1 (configuration not stated)	-	1.732
CSCC[C@H](N)C(=O)OC(C)(C)C	10.31	-
O=C(c1ccncc1C(F)(F)F)N1CC[C@@H](CO)C1	-2.158	-
CSc1ccccc1-c1[nH][nH]c(=O)c1CCN	35.53	-
Cc1nn(C)cc1S(=O)(=O)NCc1cccnc1	-	4.206
CCN(CC)C(=O)CCNC(=O)NC1(C)CCC1	-	-5.125
Cc1ccccc1-c1[nH][nH]c(=O)c1CCN	58.51	-
CNC(CO)c1ccccc1 (configuration not stated)	-1.956	-9.98
O=C(COc1ccccc1)Nn1cnnc1	10.6	-
COc1ccc(C(=O)N[C@@H]2CCOC[C@H]2O)cn1	3.326	-
COc1ccccc1S(=O)(=O)N1C[C@H](C(C)C)[C@@H](N)C1	10.49	-
COCCNC(=O)[C@@H](N)Cc1ccccc1	0.9472	-
OC1CCCN(Cc2cccc(F)c2F)C1 (configuration not stated)	27.37	-
Cc1nc(NCc2n[nH]c(=O)[nH]2)cc(C2CC(O)C2)n1 (configuration not stated)	-3.883	-
CC(C)N(C)C(=O)Nc1cccnc1OCC(F)F	22.23	-
CNCCNC(C)=O	-14.5	-
COCCn1ccnc1CN1CCC(C#N)CC1	-7.455	-
CC(=O)c1ccc(NC(=O)CCc2cccs2)nc1	-8.027	-
O=C(C1CCC1)N(C1CC1)C1CCS(=O)(=O)C1 (configuration not stated)	-	-4.272
Cc1ncsc1C(=O)NC1CCNCC1	-3.357	-
COc1cc(-c2cc(N)n[nH]2)cc(OC)c1OC	11.91	-
CC(C)CNC(=O)CNC(=O)NCC1(C)CCCC1	-	17.01
N[C@H]1CC[C@H](Oc2ncccc2Cl)CC1	59.43	-
COCCNS(=O)(=O)c1ccc2c(c1)CCC(=O)N2	7.064	-
Cc1ccc(S(C)(=O)=O)cc1NC(=O)C1CCC1	-	1.158
CC1(NS(=O)(=O)c2ccc(Cl)cc2F)CCS(=O)(=O)C1 (configuration not stated)	16.81	-
COC(=O)Cc1sc(N)nc1C	-	16.88
c1ncn(CCN2CCOC3(CCCC3)C2)n1	-	0.378
Cc1nn(C)c(Cl)c1C(=O)N1CCC(C(N)=O)CC1	-	6.693
Cc1cncc(C(=O)OC(C)CCN2CCCC2=O)c1 (configuration not stated)	-	-1.608
O=C(CN1CCSCC1)NCC1CCCO1 (configuration not stated)	29.8	-
Nc1ccc(CC2CCNCC2)cn1	-	-0.699
O=S(=O)(NC1CCCNC1)c1ccccc1 (configuration not stated)	-	-2.677
CN1CCC(NC(=O)CCc2ccccc2F)CC1	-	-15.59
CCCC(=O)Nc1ccc(N2CCN(CC)CC2)cc1	21.66	-
CC(NS(=O)(=O)c1ccccc1)c1ccccn1 (configuration not stated)	28.49	-9.69
COC1(c2noc(-c3cnccn3)n2)CCC1	18.83	-
NC(=O)C1CCCN(Cc2ccccc2Cl)C1 (configuration not stated)	8.135	-
COc1cc(Br)ccc1CCCNC(=O)C(C)O (configuration not stated)	-	30.61
NS(=O)(=O)N1CCN(Cc2cc3ccccc3s2)CC1	7.863	3.244
CCn1c(C(=O)N2CCC(O)CC2)cc2ccccc21	31.54	-
Cn1c(CNC(=O)C2CCCOC2)nnc1C1CCC1 (configuration not stated)	1.037	-
Cc1cnccc1NCCn1ccnc1-c1ncc[nH]1	-	4.565
CC(=O)N1CC(NC(=O)c2cc(C)cc(Br)c2)C1	4.072	-
Nc1ncnc(N2CCCCC2)n1	4.452	-
CC(C)c1cc(CN)on1	31.67	26.46
Cc1ncsc1C(=O)NC(C)C(C)C (configuration not stated)	58.6	76.67
CCc1nccn1CCNC(=O)[C@H]1CCC[C@@H](O)C1	8.939	-
CCCSc1ccc(NC(=O)NCCN)cc1	76.87	62.7
NC(=O)C1CCN(CCOc2ccc(F)cc2)CC1	1.795	-
c1ccc(CNCCOc2ccccn2)cc1	19.1	-
NC1CCCN(C2CCCCC2)C1=O (configuration not stated)	25.04	-
Cn1ncc2c(N3CCCCC3CN)ncnc21 (configuration not stated)	-	2.51
Cc1ccc(CNCc2cncs2)c(N2CCCC2)n1	-	-10.55

Some entries from above, unchanged:

structure,A,B
COCCNC(=O)[C@@H](N)Cc1ccccc1,0.9472,-
CCN(CC)C(=O)CCNC(=O)NC1(C)CCC1,-,-5.125
CSc1ccccc1-c1[nH][nH]c(=O)c1CCN,35.53,-
O=C(CN1CCSCC1)NCC1CCCO1 (configuration not stated),29.8,-
Cn1ncc2c(N3CCCCC3CN)ncnc21 (configuration not stated),-,2.51
N#CCOc1ccc(CN)cc1,9.523,15.79
COCCNC(=O)C(C)Cn1cc(Br)cn1 (configuration not stated),49.14,-